Experimental findings from patent US20210329924A1, “METAL-BASED ANTIMICROBIAL COMPOSITION AND METHOD OF USING” (Microbonds Inc., priority 2020, published 2021) are described below.

The nature of data set [1]: Wash test (metal remains adhered to substrate after multiple washes). The note with it: 1 hr.
Data set [2] in a line: Stain test (colour change of treated substrate, Delta E criteria). Conditions: 1 hr.
Setting [3] is: 10 ppm silver metal loading, dark Coolmax polyester fabric, 20 C.
The mark [4] stands for this setting: 20 ppm silver metal loading, dark Coolmax polyester fabric, 20 C.
The mark [5] stands for this setting: 100 ppm silver metal loading, dark Coolmax polyester fabric, 20 C.
The mark [6] stands for this setting: 500 ppm silver metal loading, dark Coolmax polyester fabric, 20 C.
Setting [7] is: 1000 ppm silver metal loading, dark Coolmax polyester fabric, 20 C.
Where [8] appears, read: 3000 ppm silver metal loading, dark Coolmax polyester fabric, 20 C.
Setting [9] is: 10 ppm zinc metal loading, white cotton duvet, 60 C.-100 C.
[10] abbreviates: 20 ppm zinc metal loading, white cotton duvet, 60 C.-100 C.
Setting [11] is: 100 ppm zinc metal loading, white cotton duvet, 60 C.-100 C.
The mark [12] stands for this setting: 500 ppm zinc metal loading, white cotton duvet, 60 C.-100 C.
[13] abbreviates: 1000 ppm zinc metal loading, white cotton duvet, 60 C.-100 C.
The mark [14] stands for this setting: 3000 ppm zinc metal loading, white cotton duvet, 60 C.-100 C.
Where [15] appears, read: 10 ppm silver metal loading, white cotton fabric, 20 C.
Setting [16] is: 20 ppm silver metal loading, white cotton fabric, 20 C.
[17] abbreviates: 100 ppm silver metal loading, white cotton fabric, 20 C.
[18] abbreviates: 500 ppm silver metal loading, white cotton fabric, 20 C.
[19] abbreviates: 1000 ppm silver metal loading, white cotton fabric, 20 C.
The mark [20] stands for this setting: 3000 ppm silver metal loading, white cotton fabric, 20 C.

As for [Ag(NH3)2]-formate [Example 5], the “Wash test Pass” value in data set [1] (setting [3]), in data set [1] (setting [4]), in data set [1] (setting [5]), in data set [1] (setting [6]), in data set [1] (setting [7]) and in data set [1] (setting [8]) was “Yes” in each case. In addition, the “Stain test Pass” value in data set [2] (setting [3]), in data set [2] (setting [4]), in data set [2] (setting [5]), in data set [2] (setting [6]), in data set [2] (setting [7]) and in data set [2] (setting [8]) was “Yes” throughout.

Take [Cu(NH3)4(H2O)n]SO4 [Example 8]: the “Wash test Pass” value in data set [1] (setting [9]) was “Yes”; in data set [1] (setting [10]), “Yes”; in data set [1] (setting [11]) it was “Yes”; in data set [1] (setting [12]), “Yes”; in data set [1] (setting [13]), “Yes”; in data set [1] (setting [14]), “No”. Further, the “Stain test Pass” value in data set [2] (setting [9]), in data set [2] (setting [10]), in data set [2] (setting [11]), in data set [2] (setting [12]), in data set [2] (setting [13]) and in data set [2] (setting [14]) was “Yes” each time.

As to [Ag(NH3)2]-oxalate [Example 3], the “Wash test Pass” value in data set [1] (setting [15]), in data set [1] (setting [16]), in data set [1] (setting [17]), in data set [1] (setting [18]), in data set [1] (setting [19]) and in data set [1] (setting [20]) was “Yes” throughout. The “Stain test Pass” value in data set [2] (setting [15]) is given as “Yes”; in data set [2] (setting [16]), “Yes”; in data set [2] (setting [17]), “Yes”; in data set [2] (setting [18]), “Yes”; in data set [2] (setting [19]), “No”; in data set [2] (setting [20]) it was “No”.
